Columns and labels:
Format in all cases: cell-based, Dengue virus
DENV-2 16681 strain = test: DENV-2 antiviral assay (eGFP-labeled virus in Vero cells); details: SI=CC50/EC50, DENV-2 antiviral assay
Outline: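 Vero cells were pre-plated with compound overnight, then infected with eGFP-labeled DENV-2 16681 at MOI 0.5 and incubated 3 days at 37 °C. eGFP fluorescence read by automated microscopy; 9-point 4-fold dilutions (25 μM–0.00038 μM final) in quadruplicate, EC50 by linear interpolation versus virus and cell controls.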

DENV-2 strain 16681 = test: Tetravalent RT-qPCR assay Protocol A, serotype 2; details: RT-qPCR serotype 2 16681
Procedure: (§1) The antiviral activity of the compounds of the invention was tested against DENV-1 strain TC974#666 (NCPV; Table 6), DENV-2 strain 16681 (Table 7), DENV-3 strain H87 (NCPV; Table 8) and DENV-4 strains H241 (NCPV; Table 9) in a RT-qPCR assay. Therefore, Vero cells were infected with either DENV-1, or -2, or -3, or -4 in the presence or absence of test compounds. At day 3 post-infection, the cells were lysed and cell lysates were used to prepare cDNA of both a viral target (the 3′UTR of DENV; table 2) and a cellular reference gene (β-actin, table 2). Subsequently, a duplex real time PCR was performed on a Lightcycler480 instrument. The generated Cp value is inversely proportional to the amount of RNA expression of these targets. Inhibition of DENV replication by a test compound result in a shift of Cp's for the 3′UTR gene. On the other hand, if a test compound is toxic to the cells, a similar effect on β-actin expression will be observed. The comparative ΔΔCp method is used to calculate EC50, which is based on the relative gene expression of the target gene (3′UTR) normalized with the cellular housekeeping gene (β-actin).
(§2) The culture medium consisted of minimal essential medium supplemented with 2% of heat-inactivated fetal calf serum, 0.04% gentamycin (50 mg/mL) and 2 mM of L-glutamine. Vero cells, obtained from ECACC, were suspended in culture medium and 75 μL/well was added in 96-well plates (10000 cells/well), which already contain the antiviral compounds. Typically, these plates contain a 4-fold serial dilution of 9 dilution steps of the test compound at 200 times the final concentration in 100% DMSO (500 nL; final concentration range: 25 μM-0.00038 μM). In addition, each plate contains wells which are assigned as virus controls (containing cells and virus in the absence of compound) and cell controls (containing cells in the absence of virus and compound). Once the cells were added in the plates, the plates were incubated in a fully humidified incubator (37° C., 5% CO2) until the next day. Then, DENV-1 strain TC974#666 at an MOI of 0.6, DENV-2 strain 16681 at an MOI of 0.01, DENV-3 strain H87 at an MOI of 1.0 and DENV-4 strains H241 at an MOI of 0.2 and SG/06K2270DK1/2005 at an MOI of 0.16, were added. Therefore, 25 μL of virus suspension was added to all the wells containing test compound and to the wells assigned as virus control. In parallel, 25 μL of culture medium was added to the cell controls. Next, the plates were incubated for 3 days in a fully humidified incubator (37° C., 5% CO2). After 3 days, the supernatant was removed from the wells and the cells were washed twice with ice-cold PBS (˜100 μL). The cell pellets within the 96-well plates were stored at −80° C. for at least 1 day. Next, RNA was extracted using the Cells-to-CT™ lysis kit, according to the manufacture's guideline (Applied Biosystems). The cell lysates can be stored at −80° C. or immediately used in the reverse transcription step.
(§3) In preparation of the reverse transcription step, mix A (table 3A) was prepared and 7.57 μL/well was dispensed in a 96-well plate. After addition of 5 μL of the cell lysates, a five minute denaturation step at 75° C. was performed (table 3B). Afterwards, 7.43 μL of mix B was added (table 3C) and the reverse transcription step was initiated (table 3D) to generate cDNA.
(§4) Finally, a RT-qPCR mix was prepared, mix C (table 4A), dispensed in 96-well LightCycler qPCR plates to which 3 μL of cDNA was added and the qPCR was performed according to the conditions in table 4B on a LightCycler 480. Using the LightCycler software and an in-house LIMS system, dose response curves for each compound were calculated and the half maximal effective concentration (EC50) and the half maximal cytotoxic concentration (CC50) were determined.

DENV-1 strain TC974#666 = test: Tetravalent RT-qPCR assay Protocol A, serotype 1; details: RT-qPCR serotype 1 TC974#666
Procedure: as §1, §2, §3, §4

DENV-4 strains H241 = test: Tetravalent RT-qPCR assay Protocol A, serotype 4; details: RT-qPCR serotype 4 H241
Procedure: as §1, §2, §3, §4

DENV-3 strain H87 = test: Tetravalent RT-qPCR assay Protocol A, serotype 3; details: RT-qPCR serotype 3 H87
Procedure: as §1, §2, §3, §4

| Compound | SI (DENV-2 16681 strain; listed as 8A*) | SI (DENV-2 strain 16681) | SI (DENV-1 strain TC974#666) | SI (DENV-4 strains H241) | SI (DENV-3 strain H87) | SI (DENV-2 16681 strain; listed as 7A*) | SI (DENV-2 16681 strain; listed as 11A*) | SI (DENV-2 16681 strain; listed as 6A*) | SI (DENV-2 16681 strain; listed as 14A*) | SI (DENV-2 16681 strain; listed as 9A*) | SI (DENV-2 16681 strain; listed as 17B*) | SI (DENV-2 16681 strain; listed as 4A*) | SI (DENV-2 16681 strain; listed as 16A*) | SI (DENV-2 16681 strain; listed as 12A*) |
| --- | --- | --- | --- | --- | --- | --- | --- | --- | --- | --- | --- | --- | --- | --- |
| COc1cc(NC(C(=O)c2c[nH]c3c(C)cc(F)cc23)c2ccc(F)cc2OC)cc(S(C)(=O)=O)c1 (single isomer, unassigned) [Enantiomer 8A, 2-(4-fluoro-2-methoxyphenyl)-1-(5-fluoro-7-methyl-1H-indol-3-yl)-2-((3-methoxy-5-(methylsulfonyl)phenyl)amino)ethanone] | 5071 | 4191 | 644 | 14 | 48 | – | – | – | – | – | – | – | – | – |
| COc1cc(NC(C(=O)c2c[nH]c3cc(F)c(F)cc23)c2ccc(F)cc2OC)cc(S(C)(=O)=O)c1 (single isomer, unassigned) [Enantiomer 7A, 1-(5,6-difluoro-1H-indol-3-yl)-2-(4-fluoro-2-methoxyphenyl)-2-((3-methoxy-5-(methylsulfonyl)phenyl)amino)ethanone] | – | 7689 | 904 | 18 | 48 | 5733 | – | – | – | – | – | – | – | – |
| COc1cc(NC(C(=O)c2c[nH]c3cc(OC)c(F)cc23)c2ccc(F)cc2OC)cc(S(C)(=O)=O)c1 (single isomer, unassigned) [Enantiomer 11A, 2-(4-fluoro-2-methoxyphenyl)-1-(5-fluoro-6-methoxy-1H-indol-3-yl)-2-((3-methoxy-5-(methylsulfonyl)phenyl)amino)ethanone] | – | 4543 | 402 | 16 | 52 | – | 6248 | – | – | – | – | – | – | – |
| COc1cc(NC(C(=O)c2c[nH]c3c(F)cc(C)cc23)c2ccc(F)cc2OC)cc(S(C)(=O)=O)c1 (single isomer, unassigned) [Enantiomer 6A, 2-(4-fluoro-2-methoxyphenyl)-1-(7-fluoro-5-methyl-1H-indol-3-yl)-2-((3-methoxy-5-(methylsulfonyl)phenyl)amino)ethanone] | – | 1274 | 476 | 11 | 43 | – | – | 1887 | – | – | – | – | – | – |
| COc1cc(NC(C(=O)c2c[nH]c3cc(F)c(C)cc23)c2ccc(F)cc2OC)cc(S(C)(=O)=O)c1 (single isomer, unassigned) [Enantiomer 14A, 2-(4-fluoro-2-methoxyphenyl)-1-(6-fluoro-5-methyl-1H-indol-3-yl)-2-((3-methoxy-5-(methylsulfonyl)phenyl)amino)ethanone] | – | 4710 | 1682 | 27 | 241 | – | – | – | 8101 | – | – | – | – | – |
| COc1cc(NC(C(=O)c2c[nH]c3cc(C)c(F)cc23)c2ccc(F)cc2OC)cc(S(C)(=O)=O)c1 (single isomer, unassigned) [Enantiomer 9A, 2-(4-fluoro-2-methoxyphenyl)-1-(5-fluoro-6-methyl-1H-indol-3-yl)-2-((3-methoxy-5-(methylsulfonyl)phenyl)amino)ethanone] | – | 4693 | 402 | 14 | 34 | – | – | – | – | 4398 | – | – | – | – |
| COc1cc(NC(C(=O)c2c[nH]c3ccc(C(F)(F)F)cc23)c2ccc(F)cc2OC)cc(S(C)(=O)=O)c1 (single isomer, unassigned) [Enantiomer 17B, 2-(4-fluoro-2-methoxyphenyl)-2-((3-methoxy-5-(methylsulfonyl)phenyl)amino)-1-(5-(trifluoromethyl)-1H-indol-3-yl)ethanone] | – | 21074 | 2960 | 91 | 272 | – | – | – | – | – | >27559 | – | – | – |
| COc1cc(NC(C(=O)c2c[nH]c3cc(Cl)ccc23)c2ccc(F)cc2OC)cc(S(C)(=O)=O)c1 (single isomer, unassigned) [Enantiomer 4A, 1-(6-chloro-1H-indol-3-yl)-2-(4-fluoro-2-methoxyphenyl)-2-((3-methoxy-5-(methylsulfonyl)phenyl)amino)ethanone] | – | 12281 | 851 | 24 | 47 | – | – | – | – | – | – | 8726 | – | – |
| COc1cc(NC(C(=O)c2c[nH]c3cc(OC)c(Cl)cc23)c2ccc(F)cc2OC)cc(S(C)(=O)=O)c1 (single isomer, unassigned) [Enantiomer 16A, 1-(5-chloro-6-methoxy-1H-indol-3-yl)-2-(4-fluoro-2-methoxyphenyl)-2-((3-methoxy-5-(methylsulfonyl)phenyl)amino)ethanone] | – | 19958 | 970 | 38 | 164 | – | – | – | – | – | – | – | 8049 | – |
| COc1cc(NC(C(=O)c2c[nH]c3c(Cl)c(OC)ccc23)c2ccc(F)cc2OC)cc(S(C)(=O)=O)c1 (single isomer, unassigned) [Enantiomer 12A, 1-(7-chloro-6-methoxy-1H-indol-3-yl)-2-(4-fluoro-2-methoxyphenyl)-2-((3-methoxy-5-(methylsulfonyl)phenyl)amino)ethanone] | – | >42176 | >870 | >111 | 76 | – | – | – | – | – | – | – | – | >36121 |

From US10029984B2, “Mono- or di-substituted indole derivatives as dengue viral replication inhibitors” (Janssen Pharmaceuticals, Inc., priority 2015, dated 2018)
